Anti-infective test results gathered from many reports (values: NIAID ChemDB through PubChem).

Common to all: tests in culture; species: HIV-1; cells: MT-4; read-out: EC50

a–b is a range or a potency band. An empty or dashed field is not shown. Neighbouring rows are from separate reports. ECn: concentration that inhibits the pathogen or its effect by n%.

| structure | strain | mutations | read by | conditions | value |
|---|---|---|---|---|---|
| O=C(OC[C@H]1O[C@@H](OC(=O)c2cc(OS(=O)(=O)O)c(OS(=O)(=O)O)c(OS(=O)(=O)O)c2)[C@H](OC(=O)c2cc(OS(=O)(=O)O)c(OS(=O)(=O)O)c(OS(=O)(=O)O)c2)[C@@H](OC(=O)c2cc(OS(=O)(=O)O)c(OS(=O)(=O)O)c(OS(=O)(=O)O)c2)[C@@H]1OC(=O)c1cc(OS(=O)(=O)O)c(OS(=O)(=O)O)c(OS(=O)(=O)O)c1)c1cc(OS(=O)(=O)O)c(OS(=O)(=O)O)c(OS(=O)(=O)O)c1 | IIIB | - | MTT | 5 d | 0.58 µg/mL |
| Nc1ccn([C@@H]2CS[C@H](CO)O2)c(=O)n1 | IIIB | - | MTT | - | 5.5 µM |
| COc1cccc2c1c1ccc(N)cc1n1c(C)c(C(C)=O)cc21 | - | - | cytopathic effect / MTT | - | >18 µM |
| Cc1cc2[nH]cnc2cc1NC(=O)COc1ccc(Cl)cc1C(=O)c1cc(F)cc(C(F)(F)F)c1 | IIIB | - | cytopathic effect / propidium iodide | - | <0.01 µM |
| CC1C(=S)Nc2ccc(Cl)cc2S(=O)(=O)N1Cc1cc(Cl)cc(Cl)c1 | - | - | cytopathic effect / MTT | - | 10 µM |
| Cc1cc(N2CCS(=O)CC2)ccc1NC(=O)COc1ccc(Cl)cc1C(=O)c1nccs1 | Nevirapine-resistant (RT Y181C) | RT-Y181C | cytopathic effect / propidium iodide | - | 0.101–1 µM |
| Cc1cc(C#N)cc(C)c1Oc1nc(NC2CCN(S(=O)(=O)c3ccc(C#N)cc3)CC2)nc2ccsc12 | IIIB | - | MTT | - | 0.44 µM |
| Cc1cccc(CN2C(C)C(=O)Nc3ccc(Cl)cc3S2(=O)=O)c1 | - | - | cytopathic effect / MTT | - | 0.13 µM |
| Cc1cc(C#N)cc(C)c1Oc1nc(NC2CCN(S(N)(=O)=O)CC2)nc2ccsc12 | IIIB | - | MTT | - | 0.24 µM |
| Nc1ncnc2c1ncn2[C@@H]1O[C@H](CO)[C@]1(O)CO | IIIB | - | antigen | - | <2 µg/mL |
| CCC(C)[C@@H](C(=O)N[C@@H](Cc1ccccc1)[C@H](O)CN(CC1CCCC1)S(=O)(=O)c1ccc(/C=N/O)cc1)N1CCN(Cc2cnccc2C)C1=O | - | - | cytopathic effect / MTT | 50% human serum | 0.014 µM |
| COC(=O)c1ccc(NC(=O)COc2nsnc2-c2cccc3ccccc23)c(Br)c1 | IIIB | - | MTT | - | >100 µM |
| CCOC(=O)c1c(Br)c2c3ccccc3c3ccccc3n2c1C | - | - | cytopathic effect / MTT | - | >300 µM |
| CCOC(=O)c1ccc(NC(=O)COc2nsnc2-c2cccc3ccccc23)c(Br)c1 | IIIB | - | MTT | - | >98 µM |
| Cc1cc(C#N)cc(C(=O)c2cc(Cl)ccc2OCC(=O)Nc2cnc(S(N)(=O)=O)cc2C)c1 | Nevirapine-resistant (RT Y181C) | RT-Y181C | cytopathic effect / propidium iodide | - | <0.01 µM |
| O=C1c2c(O)c(=O)n(-c3ccc(N4CCOCC4)nc3)c(=O)n2CCN1Cc1ccc(F)cc1 | - | - | p24 | - | <10 µM |
| CCC(C)[C@@H](C(=O)N[C@@H](Cc1ccccc1)[C@H](O)CN(CC1CCCC1)S(=O)(=O)c1ccc(/C=N/O)cc1)N1CCN(Cc2cccc(C)n2)C1=O | - | - | cytopathic effect / MTT | - | 0.0005 µM |
| O=C1c2c(O)c(=O)n(C(C3CC3)C3CC3)c(=O)n2CCN1Cc1ccc(F)cc1 | - | - | p24 | - | <10 µM |
| Cc1nc2c(c(C)c(C)n2Cc2ccncc2)c(-c2ccc(Cl)cc2)c1[C@H](OC(C)(C)C)C(=O)O | IIIB | - | MTT | - | 0.00772 µM |
| Cc1cccc(NC(=O)NC(C)(C)C(=O)N[C@@]23CC[C@]4(C)[C@H](CC[C@@H]5[C@@]6(C)CC[C@H](OC(=O)C7C[C@@H](C(=O)O)C7(C)C)C(C)(C)[C@@H]6CC[C@]54C)C2=C(C(C)C)C(=O)C3)n1 | NL4-3 | - | p24 | - | <0.005 µM |
| COc1cccc(-c2cc(C(C)=O)c(C)n2-c2cccc(N)c2)c1 | - | - | cytopathic effect / MTT | - | >10.2 µM |
| CC(C)C1=C2[C@H]3CC[C@@H]4[C@@]5(C)CC[C@H](OC(=O)C6C[C@@H](C(=O)O)C6(C)C)C(C)(C)[C@@H]5CC[C@@]4(C)[C@]3(C)CC[C@@]2(NC(=O)C(C)(C)NC(=O)c2ccc(Cl)cc2)CC1=O | NL4-3 | V7A | p24 | - | <0.01 µM |
| O=C1c2c(O)c(=O)n(C3CCC(O)CC3)c(=O)n2CCN1Cc1ccc(F)cc1 | - | - | p24 | - | <10 µM |
| C=CCn1c(C)c(C)c2c(-c3ccc(Cl)cc3)c(C(OC(C)(C)C)C(=O)O)c(C)nc21 | IIIB | - | MTT | - | 0.0317 µM |
| Clc1ccc(Cn2cc(COc3nsnc3-c3cccc4ccccc34)nn2)cc1 | IIIB | - | MTT | - | >115 µM |
| CCc1c(Cc2cc(Cl)cc(Cl)c2)n(COC/C(C)=C/c2ccccc2)c(=O)[nH]c1=O | IIIB | - | cytopathic effect / MTT | - | 0.03 µM |
| Cc1nc2c(c(C)c(C)n2CCN2CCCC2)c(-c2ccc(Cl)cc2)c1[C@H](OC(C)(C)C)C(=O)O | IIIB | - | MTT | - | 0.124 µM |
| Cc1noc(C)c1C(=O)NC(C)(C)C(=O)N[C@@]12CC[C@]3(C)[C@H](CC[C@@H]4[C@@]5(C)CC[C@H](OC(=O)C6C[C@@H](C(=O)O)C6(C)C)C(C)(C)[C@@H]5CC[C@]43C)C1=C(C(C)C)C(=O)C2 | NL4-3 | - | p24 | - | <0.005 µM |
| Cc1cc(C#N)cc(C)c1Oc1nc(Nc2ccc(C#N)cc2)nc(N)c1Br | IIIB | - | MTT | - | 0.004 µM |
| CCc1c(Cc2cc(Cl)cc(Cl)c2)n(COC2CCc3ccccc32)c(=O)[nH]c1=O | NNRTI-resistant (RT K103N Y181C) A17 | RT-K103N Y181C | cytopathic effect / MTT | - | 10 µM |
| Cc1ccc(C(=O)NC2(C(=O)N[C@@]34CC[C@]5(C)[C@H](CC[C@@H]6[C@@]7(C)CC[C@H](OC(=O)C8C[C@@H](C(=O)O)C8(C)C)C(C)(C)[C@@H]7CC[C@]65C)C3=C(C(C)C)C(=O)C4)CCCC2)cn1 | NL4-3 | V7A | p24 | - | <0.01 µM |
| O=C(CN1CCOCC1)N1CCC(n2c(=O)c(O)c3n(c2=O)CCN(Cc2ccc(F)cc2)C3=O)CC1 | - | - | p24 | - | <10 µM |
| CCC[C@@]1(CCc2ccccc2)CC(O)=C([C@H](CC)c2cccc(NS(=O)(=O)c3ccc(C(F)(F)F)cn3)c2)C(=O)O1 | T20760 | L10F I47I/V | reporter gene | - | 2087 nM |
| CCC(C)[C@@H](C(=O)N[C@@H](Cc1ccccc1)[C@H](O)CN(CC(C)C)S(=O)(=O)c1ccc(/C=N/O)cc1)N1CCN(Cc2cccc(COC)n2)C1=O | A17 (LPV-resistant) | PR-L10F V32I M46I I47V Q68E I84V | cytopathic effect / MTT | - | 0.003 µM |
| CCOC(=O)CNS(=O)(=O)c1cc(Cl)ccc1N | - | - | cytopathic effect / MTT | - | >200 µM |
| CC(C)CN(C[C@@H](O)[C@H](Cc1ccccc1)NC(=O)[C@H](C(C)C)N1CC(=O)N(Cc2ccccn2)C1=O)S(=O)(=O)c1ccc(/C=N/O)cc1 | - | - | cytopathic effect / MTT | - | 0.005 µM |
| CC(c1ccccn1)n1c(=O)c(O)c2n(c1=O)CCN(Cc1ccc(F)cc1)C2=O | - | - | p24 | - | <10 µM |
| CCOCn1c(Cc2ccccc2)c(C(C)C)c(=O)[nH]c1=O | NNRTI-resistant (RT Y181C) N119 | RT-Y181C | cytopathic effect / MTT | - | 44 µM |
| CCOC(=O)c1cc2c3ccccc3c3ccc(N)cc3n2c1C | - | - | cytopathic effect / MTT | - | >21 µM |
| N#Cc1ccc(Cn2cc(COc3nsnc3-c3cccc4ccccc34)nn2)cc1 | IIIB | - | MTT | - | >13 µM |
| Nc1ncnc2c1ncn2[C@@H]1O[C@H](CO)[C@@H]1O | IIIB | - | antigen | - | <0.2 µg/mL |
| Cc1nc2c(c(C)c(C)n2Cc2cocn2)c(-c2ccc(Cl)cc2)c1[C@H](OC(C)(C)C)C(=O)O | IIIB | - | MTT | - | 0.00975 µM |
| Cc1cc(C#N)cc(C)c1Oc1nc(Nc2ccc(NS(=O)(=O)c3ccc(-c4ccccc4)cc3)cc2)nc2ccsc12 | IIIB | - | MTT | - | 3.6 µM |
| Cc1cc(N2CCS(=O)CC2)ccc1NC(=O)COc1ccc(Cl)cc1C(=O)c1cccs1 | IIIB | - | cytopathic effect / propidium iodide | - | <0.01 µM |
| CCCCCCCCCCCCCC(=O)OC[C@H]1O[C@@H](n2cnc3c(N)ncnc32)[C@@H]1CO | IIIB | - | - | - | 2.4 µg/mL |
| CC(C)C1=C2[C@H]3CC[C@@H]4[C@@]5(C)CC[C@H](OC(=O)C6C[C@@H](C(=O)O)C6(C)C)C(C)(C)[C@@H]5CC[C@@]4(C)[C@]3(C)CC[C@@]2(NC(=O)C(C)(C)NC(=O)c2cc(C(C)C)[nH]n2)CC1=O | NL4-3 | V7A | p24 | - | <0.01 µM |
| O=C(COc1ccc(Cl)cc1C(=O)c1ccco1)Nc1ccc2cn[nH]c2c1 | Nevirapine-resistant (RT Y181C) | RT-Y181C | cytopathic effect / propidium iodide | - | 0.011–0.1 µM |
| CCOCn1c(Cc2cc(Cl)cc(Cl)c2)c(CC)c(=O)[nH]c1=O | IIIB | - | cytopathic effect / MTT | - | 0.04 µM |
| [N-]=[N+]=NC[C@H]1[C@H](n2cnc3c(N)ncnc32)O[C@@H]1CO | IIIB | - | antigen | - | 0.8 µg/mL |
| C=C(C)COCn1c(Cc2cc(Cl)cc(Cl)c2)c(CC)c(=O)[nH]c1=O | NNRTI-resistant (RT K103N Y181C) A17 | RT-K103N Y181C | cytopathic effect / MTT | - | >10 µM |
| CCc1cc(C#N)cc(C(=O)c2cc(Cl)ccc2OCC(=O)Nc2ccc(S(N)(=O)=O)cc2C)c1 | Nevirapine-resistant (RT Y181C) | RT-Y181C | cytopathic effect / propidium iodide | - | <0.01 µM |
| CC1C(=O)Nc2ccc(Cl)cc2S(=O)(=O)N1CC1CC1 | - | - | cytopathic effect / MTT | - | 2.2 µM |
| Cc1cc(Cl)cc(C(=O)c2cc(Cl)ccc2OCC(=O)Nc2ccc(S(N)(=O)=O)cc2C)c1 | Nevirapine-resistant (RT Y181C) | RT-Y181C | cytopathic effect / propidium iodide | - | <0.01 µM |
| Cc1ccc(C(=O)NC2(C(=O)N[C@@]34CC[C@]5(C)[C@H](CC[C@@H]6[C@@]7(C)CC[C@H](OC(=O)C8C[C@@H](C(=O)O)C8(C)C)C(C)(C)[C@@H]7CC[C@]65C)C3=C(C(C)C)C(=O)C4)CC2)cc1 | NL4-3 | V7A | p24 | - | <0.01 µM |
| O=C1c2c(O)c(=O)n(C3CCSCC3)c(=O)n2CCN1Cc1ccc(F)cc1 | - | - | p24 | - | <10 µM |
| Cc1cc(S(N)(=O)=O)ccc1NC(=O)COc1ccc(Cl)cc1C(=O)c1cccc(C#N)n1 | Nevirapine-resistant (RT Y181C) | RT-Y181C | cytopathic effect / propidium iodide | - | <0.01 µM |

A second listing of 7 rows from above:

structure,strain,mutations,read by,conditions,value
O=C(OC[C@H]1O[C@@H](OC(=O)c2cc(OS(=O)(=O)O)c(OS(=O)(=O)O)c(OS(=O)(=O)O)c2)[C@H](OC(=O)c2cc(OS(=O)(=O)O)c(OS(=O)(=O)O)c(OS(=O)(=O)O)c2)[C@@H](OC(=O)c2cc(OS(=O)(=O)O)c(OS(=O)(=O)O)c(OS(=O)(=O)O)c2)[C@@H]1OC(=O)c1cc(OS(=O)(=O)O)c(OS(=O)(=O)O)c(OS(=O)(=O)O)c1)c1cc(OS(=O)(=O)O)c(OS(=O)(=O)O)c(OS(=O)(=O)O)c1,IIIB,-,MTT,5 d,0.58 µg/mL
CCOCn1c(Cc2cc(Cl)cc(Cl)c2)c(CC)c(=O)[nH]c1=O,IIIB,-,cytopathic effect / MTT,-,0.04 µM
[N-]=[N+]=NC[C@H]1[C@H](n2cnc3c(N)ncnc32)O[C@@H]1CO,IIIB,-,antigen,-,0.8 µg/mL
C=C(C)COCn1c(Cc2cc(Cl)cc(Cl)c2)c(CC)c(=O)[nH]c1=O,NNRTI-resistant (RT K103N Y181C) A17,RT-K103N Y181C,cytopathic effect / MTT,-,>10 µM
Cc1cc(C#N)cc(C)c1Oc1nc(Nc2ccc(C#N)cc2)nc(N)c1Br,IIIB,-,MTT,-,0.004 µM
COC(=O)c1ccc(NC(=O)COc2nsnc2-c2cccc3ccccc23)c(Br)c1,IIIB,-,MTT,-,>100 µM
CCOC(=O)c1c(Br)c2c3ccccc3c3ccccc3n2c1C,-,-,cytopathic effect / MTT,-,>300 µM